Values of other authors in patent publication US20030176327A1 (priority 2001, published 2003).

Test system: B anthracis
Conditions: cited from earlier work

Q: For `CC(C)(O/N=C(\C(=O)N[C@@H]1C(=O)N2C(C(=O)[O-])=C(C[n+]3ccccc3)CS[C@H]12)c1csc(N)n1)C(=O)O`, which “Natural resistance of B anthracis strains” value (“Natural resistance” for short) is on record?
A: Natural resistance

Q: With `CO/N=C(\C(=O)N[C@@H]1C(=O)N2C(C(=O)O)=C(COC(N)=O)CS[C@H]12)c1ccco1` [Cefuroxime] as the molecule, how does the “Natural resistance” value read?
A: Natural resistance

Q: With `Cc1cc(NS(=O)(=O)c2ccc(N)cc2)no1` as the molecule, how does the “Natural resistance” value read?
A: Natural resistance

Q: For `COc1cc(Cc2cnc(N)nc2N)cc(OC)c1OC`, which “Natural resistance” value is on record?
A: Natural resistance

Q: With `C[C@H]1[C@H](NC(=O)/C(=N\OC(C)(C)C(=O)O)c2csc(N)n2)C(=O)N1S(=O)(=O)O` as the molecule, how does the “Natural resistance” value read?
A: Natural resistance

Q: With `CO/N=C(\C(=O)N[C@@H]1C(=O)N2C(C(=O)O)=C(COC(C)=O)CS[C@H]12)c1csc(N)n1` as the molecule, how does the “Natural resistance” value read?
A: Natural resistance
